Results from PubChem BioAssay AID588520 (NMMLSC, 2011).
This is a selection; strong and weak results do not stand in their true shares. The source made the active and inactive calls. Rule as the data show it: active = Nile Red retention ratio vs DMSO above about 190%; inactive = the rest.

tested on: Candida albicans drug resistance protein 2 (Cdr2) efflux pump, expressed in S. cerevisiae; assay: inhibitors of Candida albicans Cdr2 efflux pump, confirmation, S. cerevisiae AD/CaCDR2, flow cytometry, cherry pick 1, singleplex (AID 588520); conditions: at 10 µM, hits give high values;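 also: higher ratio means more blocking of Cdr2 efflux of the dye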

Row | Compound | Nile Red retention ratio vs DMSO
1 | O=P(Nc1nccs1)(c1ccccc1)c1nc2ccccc2s1 (stereo unspecified) | inactive: 97.7%
